PubChem BioAssay AID624099, ICCB-Longwood – 2012

- Aim: 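Human genes that papillomavirus E2 requires to repress the HPV18 LCR promoter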 (primary screen)
- Cell system: human C33A cervical carcinoma cells (HPV-negative) stably expressing BPV1 E2 and an HPV18 LCR luciferase reporter
- Reagents: siRNA pool against human genes, 40 nM
- Duration: 72 h
- Measurement: 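Per-well luciferase luminescence, z-scored on each plate against the plate mean and SD with control wells left out, then averaged across three replicate plates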
- Reading the numbers: mean z-score and z-score: higher = stronger reporter signal, weaker E2 silencing
- Active means: 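Hit if mean z-score reaches 2 and two or more of three replicate z-scores also reach 2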
The whole screen tested about 21,000 reagents; this is an unselected part. 497 of them (2.4%) were called active. 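Higher z means weaker E2 silencing; only reporter increases were scored, and knock-downs that hurt cell survival may mask genuine repressor factors.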 Entries without a mark were called inactive.

OR2M2 showed mean z-score 1.07; z-score, replicate A = 1.21; z-score, replicate B = 0.83; z-score, replicate C = 1.17.
After knock-down of MS4A10 the results were mean z-score 0.44; z-score, replicate A = 0.79; z-score, replicate B = 0.27; z-score, replicate C = 0.24.
Depletion of JAK1 came out at: mean z-score 0.49; z-score, replicate A = 0.62; z-score, replicate B = 0.32; z-score, replicate C = 0.53.
FGF20 scored mean z-score 0.41; z-score, replicate A = 0.73; z-score, replicate B = 0.28; z-score, replicate C = 0.24.
CCNI gave mean z-score 0.03; z-score, replicate A = -0.04; z-score, replicate B = 0.05; z-score, replicate C = 0.06.
ZFP1 showed mean z-score -0.1; z-score, replicate A = -0.35; z-score, replicate B = 0.33; z-score, replicate C = -0.27.

2 of these entries in another layout:
{"gene symbol": "MS4A10", "mean z-score": 0.44, "z-score, replicate A": 0.79, "z-score, replicate B": 0.27, "z-score, replicate C": 0.24}
{"gene symbol": "JAK1", "mean z-score": 0.49, "z-score, replicate A": 0.62, "z-score, replicate B": 0.32, "z-score, replicate C": 0.53}

Continued.
Depletion of NDUFB10 came out at: mean z-score -0.99; z-score, replicate A = -0.9; z-score, replicate B = -0.83; z-score, replicate C = -1.24.
Against SF3B4, the entry reads mean z-score -2.44; z-score, replicate A = -2.3; z-score, replicate B = -2.49; z-score, replicate C = -2.52.
After knock-down of RPS21 the results were mean z-score -2.93; z-score, replicate A = -3.01; z-score, replicate B = -3.06; z-score, replicate C = -2.72.
DPPA4 showed mean z-score 0.65; z-score, replicate A = 1.44; z-score, replicate B = 0.87; z-score, replicate C = -0.34.
RND1 showed mean z-score -0.68; z-score, replicate A = -0.73; z-score, replicate B = -0.59; z-score, replicate C = -0.71.
Silencing of THEM5 gave: mean z-score 0.11; z-score, replicate A = 0.16; z-score, replicate B = 0.13; z-score, replicate C = 0.03.
